# PubChem BioAssay AID624099 – ICCB-Longwood – 2012
# Assay: 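Knock-downs relieving repression by E2 of an HPV18 LCR luciferase reporter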 (primary screen)
# System: human C33A cervical carcinoma cells (HPV-negative) stably expressing BPV1 E2 and an HPV18 LCR luciferase reporter
# Knock-down reagent: siRNA pool against human genes, 40 nM
# Time to read-out: 72 h
# Measured: 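Per-well luciferase luminescence, z-scored on each plate against the plate mean and SD with control wells left out, then averaged across three replicate plates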
# Scale: mean z-score and z-score: higher = stronger reporter signal, weaker E2 silencing
# Active means: 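Hit if mean z-score reaches 2 and two or more of three replicate z-scores also reach 2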
# The whole screen tested about 21,000 reagents; shown is a part drawn at random. 497 of all reagents (2.4%) were called active. 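Higher z means weaker E2 silencing; only reporter increases were scored, and knock-downs that hurt cell survival may mask genuine repressor factors.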 The numbers tell different reagents against one gene apart.
gene,reagent,mean z-score,"z-score, replicate A","z-score, replicate B","z-score, replicate C",activity call
METTL6,1,-1.19,-1.16,-1.12,-1.3,inactive
LOC389081 (retired record),1,0.44,0.63,0.25,0.45,inactive
PAQR8,1,0.51,0.4,0.51,0.61,inactive
GPR26,1,0.87,0.88,0.9,0.83,inactive
ZNF157,1,-0.87,-0.8,-0.86,-0.96,inactive
ELMO3,1,-0.21,-0.05,0.08,-0.67,inactive
NFE2,1,-0.32,-0.42,-0.23,-0.3,inactive
SACK1A,1,1.79,1.69,1.92,1.77,inactive
LOC401353 (retired record),1,-0.23,-0.38,-0.68,0.36,inactive
LOC401353 (retired record),2,0.17,0.21,0.13,0.16,inactive
SFTPD,1,0.42,0.04,0.19,1.04,inactive
NEDD9,1,-0.61,-0.76,-0.39,-0.68,inactive
CCNK,1,1.6,1.52,1.7,1.58,inactive

In a second layout: 2 of the entries above
gene | reagent | mean z-score | z-score, replicate A | z-score, replicate B | z-score, replicate C | activity call
NFE2 | 1 | -0.32 | -0.42 | -0.23 | -0.3 | inactive
SACK1A | 1 | 1.79 | 1.69 | 1.92 | 1.77 | inactive

Further entries:
gene,reagent,mean z-score,"z-score, replicate A","z-score, replicate B","z-score, replicate C",activity call
TTF1,1,0.14,0.08,0.6,-0.26,inactive
NLGN2,1,0.28,0.44,0.32,0.08,inactive
FKTN,1,-1.51,-1.6,-1.69,-1.23,inactive
SARDH,1,-1.73,-1.42,-1.53,-2.23,inactive
ABCD2,1,1.35,1.33,1,1.73,inactive
ZNF780A,1,-0.86,-0.64,-0.8,-1.13,inactive
FLJ31958 (retired record),1,1.07,1.07,1,1.15,inactive
PUF60,1,0.91,0.68,1.23,0.82,inactive
IL1A,1,1.16,1.31,1.16,1.01,inactive
TFEC,1,-0.18,-0.31,-0.38,0.16,inactive
